A mixed list of measured activities; the numbers were collected in NIAID ChemDB.

All rows: host cell toxicity; measure: CC50

Conditions beyond the fields shown may differ between rows. An empty or dashed field is not shown. CCn: concentration that lowers growth or viability of the cells by n%.

smiles	conditions	read by	cell line	result
CCC/C=C1\OC(=O)C2=C1C=CCC2	-	-	RAW 264.7	250 µg/mL
Cc1cc(NS(=O)(=O)c2ccc(N3C(=O)CSC3c3ccc(Cl)cc3)cc2)no1	-	MTT	HCT116	>100 µg/mL
OC[C@H]1O[C@@H](n2cnc3c(NC4CC4)nc(Cl)nc32)C[C@@H]1O	-	-	Sheep chondrocytes G81092	234 µM
O=C(O)/C=C/c1ccc(O)cc1	-	neutral red	RC-37	≥1000 µg/mL
O=C1O[C@H]([C@@H]2COC(c3ccccc3)O2)C(O)=C1O	-	-	U1	30 µg/mL
O=c1[nH]cnc2c1ncn2[C@H]1CC[C@@H](CO)O1	-	-	BFU-E	34 µM
CCNc1nc(OC)nc(N2CCN(c3ccc(N4C[C@H](CNC(C)=O)OC4=O)cc3F)CC2)n1	-	MTT	THP-1	54.2 µg/mL
COc1cc(O)c2c(c1)OC(c1ccc(O)cc1)CC2=O	-	MTT	LLC-MK2	25.97 µg/mL
Nc1ccn(C[C@@H](CO)OCP(=O)(O)O)c(=O)n1	-	-	OST TK-/HSV-1 TK+	459 µM
Nc1nc(Cl)nc2c1ncn2[C@H]1CC[C@@H](CO)O1	-	-	Sheep chondrocytes G81092	195 µM
Nc1ccn(C[C@@H](CO)OCP(=O)(O)O)c(=O)n1	-	ATP	RPTECs (clinical isolate 1)	291 µM
O=c1[nH][se]c2ncccc12	-	-	A549	25 µg/mL
S=C(NCCc1ccccn1)Nc1ccccn1	-	-	Human vaginal epithelial	>1000 µM
CC(=O)OC1C(COC(=O)/C=C/c2ccc(O)cc2)OC(COC(=O)/C=C/c2ccc(O)cc2)(OC2OC(COC(=O)/C=C/c3ccc(O)cc3)[C@@H](OC(C)=O)[C@H](O)[C@H]2O)C1OC(=O)/C=C/c1ccc(O)cc1	-	MTT	HCT116	3.24 µg/mL
COc1ccc(CCNC(=S)Nc2ccc(Br)cn2)cc1OC	-	-	HUMAN SPERM	>500 µM
CCCCCCCCCCCCCCCO[P@]1(=O)OC[C@@H]2COC(=O)C2=C(CCCC)O1	-	resazurin	U-2 OS	>50 µM
CC1(C)[C@@H]2CC[C@@]1(C)[C@H](NC(=O)/C=C/C=C/c1ccc3c(c1)OCO3)C2	-	MTT	HEK293T	198.9 µM
Fc1ccccc1CCNC(=S)Nc1ccc(C(F)(F)F)cn1	-	-	HUMAN SPERM	>500 µM
CC1(C)C2CCC1(C)C(NC(=O)[C@@H](O)c1ccccc1)C2	-	MTT	HEK293T	105.2 µM
C[n+]1cccc2c(=O)n(-c3ccccn3)[se]c21	-	-	A549	31.2 µg/mL
CC(=O)NC[C@H]1CN(c2ccc(N3CCN(c4nc5ccccc5[nH]4)CC3)c(F)c2)C(=O)O1	-	MTT	THP-1	>100 µg/mL
C/C(=N\OCc1ccc(F)cc1)c1c(C)cc(=O)n(O)c1O	7 d	MTS	HepG2-NTCO-12	>50 µM
Nc1ccn([C@H]2CC[C@@H](CO)O2)c(=O)n1	-	-	BCC-1/KMC	259.2 µg/mL
CC[C@H](C)[C@H](O)C(=O)NC1CC2CCC1(C)C2(C)C	-	MTT	HEK293T	106.6 µM
Nc1ccn([C@@H]2CC[C@H](CO)O2)c(=O)n1	-	-	CFU-GM	13 µM
OC[C@H]1O[C@@H](n2cnc3c(NC4CCCC4)cc(Cl)nc32)[C@H](O)[C@@H]1O	-	-	Sheep chondrocytes G81092	260 µM
Cc1cc(C)cc(S(=O)(=O)c2c(C(N)=O)[nH]c3ccc(Cl)cc23)c1	-	-	Macrophage	20 µM
CC(=O)OC(C1CC(C)C(=O)O1)C(C)C1C2C3(O)OC4(CCC12C)C(=CCC1C(C)(C)OC2CC(=O)OC21C4O)C3=O	-	MTT	HL-60	2.44 µg/mL
O=c1[nH]c(=O)n([C@H]2C[C@H](O)[C@@H](CO)O2)cc1/C=C/Br	-	-	OST TK-	1437 µM
OC[C@@H]1C[C@@H](O)[C@H](n2cnc3c(NC4CCCCCC4)cc(Cl)nc32)O1	-	MTT	Sheep chondrocytes G81092	145 µM
CC(=O)O[C@H]1C(=O)[C@@]2(C)[C@H]([C@H](OC(=O)c3ccccc3)[C@]3(O)C[C@H](OC(=O)[C@H](O)[C@@H](NC(=O)c4ccccc4)c4ccccc4)C(C)=C1C3(C)C)[C@]1(OC(C)=O)CO[C@@H]1C[C@@H]2O	-	MTT	A459	0.0035 µg/mL
Nc1ncnc2c1ncn2[C@@H]1O[C@H](OCP(=O)(O)O)C=C1F	-	ATP	RPTECs (clinical isolate 2)	>2000 µM
CC1(C)[C@@H]2CC[C@@]1(C)[C@H](O)[C@@H]2NC(=O)/C=C/C=C/c1ccc2c(c1)OCO2	-	MTT	HEK293T	33.1 µM
O=c1[nH]cnc2c1ncn2[C@H]1CC[C@@H](CO)O1	-	-	HELA-CD4+	3.5 µM
O=c1[nH]c(=O)n([C@H]2C[C@H](O)[C@@H](CO)O2)cc1C12B3B4B5B6B(B3B1B42)B1B5C61	-	-	LNCaP	~115 µM
CC1(C)[C@@H]2CC[C@@]1(C)[C@@H](NC(=O)/C=C/C=C/c1ccc3c(c1)OCO3)C2	-	MTT	HEK293T	146.5 µM
Cc1cc(NS(=O)(=O)c2ccc(N3C(=O)CSC3c3c(Cl)cccc3Cl)cc2)no1	-	MTT	HCT116	>100 µg/mL
Cn1c2ccccc2c2c3c(c4c5ccccc5n(CCC#N)c4c21)CNC3=O	-	-	CD4+ T CELLS	37 µM
C[C@@]1(O)[C@H](O)[C@@H](CO)O[C@H]1n1cnc2c(N)ncnc21	-	ATP	Lunet-CD81	>50 µM
Nc1nc(=O)n([C@@H]2CS[C@H](CO)O2)cc1F	-	-	BFU-E	220 µM
Cc1cn([C@H]2C[C@H](N=[N+]=[N-])[C@@H](CO)O2)c(=O)[nH]c1=O	-	-	C8166	<403 µM
Nc1ncnc2c1ncn2[C@H]1C[C@H](O)[C@@H](CO)O1	-	-	Sheep chondrocytes G81092	>400 µM
CCCCC1OC(=O)c2ccccc21	-	-	RAW 264.7	200 µg/mL
C[C@H]1c2ccoc2C[C@H]2[C@H]1[C@@H](O)[C@@H](OC(=O)/C=C/c1ccccc1)[C@@]1(O)C(C)(C)CCC[C@]21C	-	-	BC	1.4 µg/mL
C=Cc1cn([C@@H]2O[C@H](CO)[C@@H](O)[C@@H]2O)c(=O)[nH]c1=O	-	-	HELF	620 µg/mL
S=C(NCCC1=CCCCC1)Nc1ccc(Br)cn1	-	-	Human vaginal epithelial	>1000 µM
CC(C)C[C@H](O)C(=O)NC1CC2CCC1(C)C2(C)C	-	MTT	HEK293T	111.8 µM
CCC/C=C1/OC(=O)c2ccccc21	-	-	RAW 264.7	250 µg/mL
OC[C@H]1O[C@@H](n2cnc3c(NC4CCCCCC4)nc(Cl)nc32)[C@H](O)[C@@H]1O	-	MTT	Sheep chondrocytes G81092	100 µM
S=C(NCCC1=CCCCC1)Nc1ccc(Cl)cn1	-	-	Human vaginal epithelial	578 µM
O=c1c2ccccc2[se]n1-c1cc([N+](=O)[O-])ccn1	-	-	A549	400 µg/mL
C[C@H](Cn1cnc2c(N)ncnc21)OCP(=O)(O)O	-	ATP	AD38	>50 µM
S=C(NCCc1ccc(Br)cc1)Nc1ccc(Br)cn1	-	-	HUMAN SPERM	>500 µM

A second listing of 3 rows from above:

smiles,conditions,read by,cell line,result
CC1(C)C2CCC1(C)C(NC(=O)[C@@H](O)c1ccccc1)C2,-,MTT,HEK293T,105.2 µM
CC1(C)[C@@H]2CC[C@@]1(C)[C@@H](NC(=O)/C=C/C=C/c1ccc3c(c1)OCO3)C2,-,MTT,HEK293T,146.5 µM
Nc1ccn([C@@H]2CC[C@H](CO)O2)c(=O)n1,-,-,CFU-GM,13 µM